Here are results for three compounds from ChEMBL document CHEMBL1201862, “PubChem BioAssay data set” (2004).

The list shows a part of the results. The rule behind the calls is not given here. These assays gave more results; the selection is not random.

The nature of the assay: qHTS for Inhibitors of AMA1-RON; Towards Development of Antimalarial Drug Lead: Primary Screen. The assay is classed as functional.
`O=[N+]([O-])c1cc([N+](=O)[O-])c(Nc2ccc(Cl)cc2)c([N+](=O)[O-])c1`: the Potency was active: 28.2 µM.
In the case of `O=C1C(O)=C([N+](=O)[O-])C(=O)C(O)=C1[N+](=O)[O-]` it was active: 28.2 µM; in that of `Cc1ccc(Nc2c([N+](=O)[O-])cc([N+](=O)[O-])cc2[N+](=O)[O-])cc1`, active: 22.4 µM.
